PubChem BioAssay AID504761 – Drosophila RNAi Screening Center – 2011
The deposit covers about 22,000 reagents; below is a random part of those with a known target gene and a result. In the full data, 116 (0.52%) were called active. 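Calls depend on retest data that are not deposited; infection was ranked per plate without normalising between plates; the unit of the infection score is not given.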 The raw values are shown without normalisation. The record does not give: the amount of reagent, the time to read-out.

Screen: 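Genome-wide fly cell screen for genes dengue virus requires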 (primary screen)
Cells: D.Mel-2 cells from Drosophila
Reagents: long dsRNA against Drosophila genes
Treatment: infection with dengue virus type 2; dose and infection time not stated
Measurement: 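Per well on two replicate plates, imaging gave the percent of cells positive for viral envelope protein, ranked by infection, and a nuclear count of cells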
Scale: infection score: higher = more virus-infected cells; cell count: higher = more cells in the well
Active means: 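Low infection ranks in the two replicates (chance level up to 0.065) followed by a retest with a 1.5-fold or larger significant decrease, p below 0.05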
Calls: active = confirmed: knock-down lowers infection; inactive = not picked or not confirmed

gene,DRSC id,"infection score, replicate 1","infection score, replicate 2","cell count, replicate 1","cell count, replicate 2",outcome
CG4553,DRSC15595,9.93,28.8,6222,4962,inactive
CG4553,DRSC28957,8.46,14.8,2590,4849,inactive
CG16865,DRSC01904,20.5,6.97,5921,2854,inactive
CG5181,DRSC02825,3.59,1.61,5455,5964,inactive
CG5532,DRSC04509,2.21,2.97,6642,6502,inactive
ND-51L1,DRSC06072,3.34,10.7,6674,6480,inactive
CG12464,DRSC06156,17.9,9.79,5358,5669,inactive
CG32073,DRSC09087,2.96,2.91,6276,5809,inactive
CG32073,DRSC09894,2.36,6.16,6067,5921,inactive
CG13056,DRSC09937,3.06,3.05,5721,6140,inactive
CG13056,DRSC29419,5.76,17.6,3263,3561,inactive
Ebp,DRSC04048,35.6,16.5,5657,5875,inactive
Ebp,DRSC27342,15.5,20.3,6547,5619,inactive
Pef,DRSC06695,8.9,11.8,6171,6481,inactive
CG17472,DRSC02622,4.79,17.6,6924,5792,inactive
CG17724,DRSC06687,6.05,5.4,6430,6485,inactive
CG17724,DRSC27618,4.92,10.5,6710,6617,inactive
Glys,DRSC16130,18.1,7.81,5390,6373,inactive
CG13924,DRSC08393,0.75,4,6691,6068,inactive
mRpL39,DRSC10255,6.11,3.55,5287,5663,inactive
gw,DRSC17135,1.81,4.01,5589,6158,inactive
gw,DRSC17160,0.65,1.68,4781,4118,inactive
gw,DRSC23497,3.73,0.93,4855,4941,inactive
GC1,DRSC15322,9.74,24.5,6929,3688,inactive
GC1,DRSC25627,3.92,1.49,6150,5978,inactive
CG14380,DRSC14840,8.73,6.54,5912,6742,inactive
CG11211,DRSC04851,6.79,11.9,6334,6678,inactive
Cyp9f2,DRSC16635,17.8,28.3,5304,4627,inactive
osi,DRSC02931,3.81,2.98,6412,6575,inactive
Eh,DRSC16660,7.99,3.24,5394,6082,inactive
CG43317,DRSC15000,10.7,4.27,4374,5995,inactive
Obp59a,DRSC04160,13.9,22.6,6161,6226,inactive
GC2,DRSC14476,5.93,4.37,7028,6428,inactive
GC2,DRSC27370,20,3.35,6214,6145,inactive
pncr003:2L (retired record),DRSC22149,5.68,10.2,4628,3087,inactive
pncr003:2L (retired record),DRSC29855,17.1,12.6,6264,5892,inactive
CG11178,DRSC19396,6.59,14.9,6677,6258,inactive
CG32462,DRSC11851,3.16,11.3,6450,6741,inactive
CG32462,DRSC29458,21,20.8,5605,4367,inactive

6 successive entries from above:
gene,DRSC id,"infection score, replicate 1","infection score, replicate 2","cell count, replicate 1","cell count, replicate 2",outcome
Ebp,DRSC04048,35.6,16.5,5657,5875,inactive
Ebp,DRSC27342,15.5,20.3,6547,5619,inactive
Pef,DRSC06695,8.9,11.8,6171,6481,inactive
CG17472,DRSC02622,4.79,17.6,6924,5792,inactive
CG17724,DRSC06687,6.05,5.4,6430,6485,inactive
CG17724,DRSC27618,4.92,10.5,6710,6617,inactive
